Data as given in article PMC7803792 (Slas Discovery, 2021).

Legend:
[1] = molecular target: SARS-CoV-2 nsp10-nsp16 complex (Severe acute respiratory syndrome coronavirus 2, UniProt P0DTD1); details: read-out: Kd (apparent); FP, 30 nM FAM-RNA, varying nsp10-nsp16; 10 mM Tris pH 7.5, 5 mM DTT, 0.01% Triton X-100, 0.01% BSA
[2] = molecular target: nsp16 (2'-O-methyltransferase);nsp10 (SARS-CoV-2;SARS-CoV-2, UniProt P0DTD1;P0DTD1 6799-7096;4254-4392, |); assay: fluorescence polarization

| Molecule | Kd [1] | Kd [2] |
| --- | --- | --- |
| 5′ N7-meGpppACCCCC-FAM 3′ | 0.13 ± 0.002 µM | – |
| ACCCCC (ssRNA, 5' N7-meGppp cap (5'-5' triphosphate; cap G not in strand)) [N7-meGpppACCCCC-FAM] | – | 0.13 ± 0.002 µM |
